Assay results as given in publication PMC6010046, “Evaluation of polyphenols from Broussonetia papyrifera as coronavirus protease inhibitors” (Journal of Enzyme Inhibition and Medicinal Chemistry, 2017).

Molecular target: SARS-CoV 3CL^pro (Severe acute respiratory syndrome coronavirus, UniProt P0C6X7)
Format: biochemical
Details: pH 7.5

O=c1c(O[C@@H]2O[C@H](CO)[C@H](O)[C@H](O)[C@H]2O)c(-c2ccc(O)c(O)c2)oc2cc(O)cc(O)c12 [Quercetin-β-galactoside, quercetin-β-galactoside, reference compound]
IC50: 129 ± 4.5 µM
